Results on 44 compounds are retold here after patent publication US6362166B1, “Antipicornaviral compounds and methods for their use and preparation” (Agouron Pharmaceuticals, Inc., priority 1996, dated 2002).

Bounds are passed on as bounds.

For this data set, the system named is HRV-14. Nature of the data set: Antirhinoviral HI-HeLa Cell Culture Assay (Cell Protection Assay, XTT dye reduction). The class given is cell-based, human rhinovirus (HRV) serotype-14. The note with it: therapeutic index = CC50 divided by EC50; HRV-14, HI-HeLa. As for the experimental part: In the Cell Protection Assay, the ability of compounds to protect cells against HRV infection was measured by the XTT dye reduction method. This method is described in Weislow, O. S., R. Kiser, D. L. Fine, J. Bader, R. H. Shoemaker, and M. R. Boyd, J. Natl. Cancer Inst. 1989, 81, 577-586, which is incorporated herein by reference.
HI-HeLa cells were infected with HRV-14 at a multiplicity of infection (m.o.i.) of 0.13 (virus particles/cell) or mock-infected with medium only. Infected or mock-infected cells were resuspended at 8×10^5 cells per mL and incubated with appropriate concentration of compounds of formulas I and II. Two days later, XTT/PMS was added to test plates and the amount of formazan produced was quantified spectrophotometrically at 450/650 nm. […] The therapeutic index (TI) was calculated by dividing the CC50 by the EC50.
All strains of human rhinovirus (HRV) for use in this assay were purchased from American Type Culture Collection (ATCC), except for HRV serotype-14, which was produced from the infectious cDNA clone, constructed and supplied to us by Dr. Roland Rueckert at the Institue for Molecular Virology, University of Wisconsin, Madison, Wisc. HRV stocks were propagated, and antiviral assays were perforemd in HI-HeLa cells (ATCC). Cells were grwon in Minimal Essential Medium, available from Life Technologies, with 10% fetal bovine serum.
The compounds were tested against control compounds WIN 51711, WIN 52084, and WIN 54954, all obtained from Sterling-Winthrop Pharmaceuticals, and control compound Pirodavir, obtained from Janssen Pharmaceuticals.
(In general: Tetrazolium dyes change colour on reduction, which living cells bring about.)
`CCOC(=O)/C=C/[C@H](CCC(N)=O)NC(=O)[C@H](Cc1ccccc1)NC(=O)[C@H](CC(C)C)NC(C)=O` [Compound 107] returned a TI greater than 23. As for `CCOC(=O)/C=C/[C@H](CCC(N)=O)NC(=O)CNC(=O)[C@H](CC(C)C)NC(=O)OCc1ccccc1` [Compound 99], the TI is greater than 2. As for `CCOC(=O)/C=C/[C@H](CCC(N)=O)NC(=O)[C@H](Cc1ccc(OC(C)=O)cc1)NC(=O)[C@H](CC(C)C)NC(=O)OCc1ccccc1` [Compound 100], the TI was greater than 29.

In turn, `CCOC(=O)/C=C/[C@H](CCC(N)=O)NC(=O)[C@H](Cc1ccc(CCO)cc1)NC(=O)[C@H](CC(C)C)NC(=O)OCc1ccccc1` [Compound 139] came in with a TI greater than 91. The compound `CCOC(=O)/C=C/[C@H](CCC(N)=O)NC(=O)[C@H](Cc1ccccc1)NC(=O)[C@H](CC(C)C)NC(=O)OC` [Compound 110] yielded a TI greater than 246. Then `CCC[C@H](NC(=O)[C@H](CC(C)C)NC(=O)OCc1ccccc1)C(=O)N[C@H](/C=C/C(=O)OCC)CCC(N)=O` [Compound 137], with greater than 1; and `CC(C)C[C@H](NC(=O)OCc1ccccc1)C(=O)N[C@@H](Cc1ccccc1)C(=O)N[C@H](/C=C/C(=O)n1ccc2ccccc21)CCC(N)=O` [Compound 89], with 16; and `CC(=O)/C=C/[C@H](CCC(N)=O)NC(=O)[C@H](Cc1ccccc1)NC(=O)[C@H](CC(C)C)NC(=O)OCc1ccccc1` [Compound 13, 4-(CBZ-L-Leu-L-Phe-L-Gln)-E-3-Butene-2-one], with 29. Then `CCOC(=O)/C=C/[C@H](CCC(N)=O)NC(=O)[C@H](Cc1cnc[nH]1)NC(=O)[C@H](CC(C)C)NC(=O)OCc1ccccc1` [Compound 112], with greater than 12; and `CCOC(=O)C=CC(CCC(N)=O)NC(=O)C(Cc1ccccc1)NC(=O)C(CCc1ccccc1)NC(=O)OCc1ccccc1` (centres unmarked) [Compound 148], with greater than 1280. Then `CCOC(=O)/C=C/[C@H](CCC(N)=O)NC(=O)[C@H](Cc1ccccc1)NC(=O)[C@H](CC(C)C)NC(=O)c1ccccc1` [Compound 67], with greater than 62. For `CC(C)C[C@H](NC(=O)OCc1ccccc1)C(=O)N[C@@H](Cc1ccccc1)C(=O)N[C@H](/C=C/C(=O)OCC(C)(C)C)CCC(N)=O` [Compound 163], the TI is listed as greater than 200. Under `CCOC(=O)/C=C/[C@H](CCC(N)=O)NC(=O)[C@H](Cc1ccc(C)cc1)NC(=O)[C@@H](NC(=O)SC1CCCC1)C(C)C` [Compound 183] stands greater than 3333; under `CCOC(=O)/C=C/[C@H](CCC(N)=O)NC(=O)[C@H](Cc1ccccc1)NC(=O)[C@H](CSCc1ccccc1)NC(=O)OCc1ccccc1` [Compound 165], greater than 500. Under `CCOC(=O)/C=C/[C@H](CCC(N)=O)NC(=O)[C@H](Cc1ccc(C#N)cc1)NC(=O)[C@H](CC(C)C)NC(=O)OCc1ccccc1` [Compound 132] stands greater than 57; under `CCOC(=O)/C=C/[C@H](CCC(N)=O)NC(=O)[C@H](Cc1ccccc1)NC(=O)[C@H](C[S+]([O-])Cc1ccccc1)NC(=O)OCc1ccccc1` (some centres unmarked) [Compound 166], greater than 18. Compound `CCOC(=O)/C=C/[C@H](CCC(N)=O)NC(=O)[C@H](CC(C)C)NC(=O)[C@H](CC(C)C)NC(=O)OCc1ccccc1` [Compound 141] registered a TI greater than 59. Then `Cc1cc(CCCCCOc2c(Cl)cc(C3=NCCO3)cc2Cl)on1` [WIN 54954, reference compound], with greater than 30; and `CCOC(=O)/C=C/[C@H](CCC(N)=O)NC(=O)[C@H](Cc1ccc(COC)cc1)NC(=O)[C@H](CC(C)C)NC(=O)OCc1ccccc1` [Compound 140], with greater than 8; and `CCOC(=O)/C=C/[C@H](CCC(N)=O)NC(=O)[C@H](Cc1ccccc1)NC(=O)[C@H](CC(C)C)NC(=O)C(C)C` [Compound 117], with greater than 320. Then `CC(C)C[C@H](NC(=O)OCc1ccccc1)C(=O)N[C@@H](Cc1ccccc1)C(=O)N[C@H](/C=C/C(=O)N1CCCO1)CCC(N)=O` [Compound 79], with greater than 7. Then `CCOC(=O)/C=C/[C@H](CCC(N)=O)NC(=O)[C@H](Cc1ccccc1)NC(=O)[C@@H](NC(=O)OCc1ccccc1)C(C)(C)C` [Compound 151], with 555; and `CCOC(=O)/C(C)=C/[C@H](CCC(N)=O)NC(=O)[C@H](Cc1ccccc1)NC(=O)[C@@H](NC(=O)SCC)C(C)(C)C` [Compound 168, Ethyl-2-Methyl-3-[Ethylthiocarbonyl-L-α-(t-Butyl-Gly)-L-Phe-L-Gln]-E-Propenoate], with greater than 312. `CCOC(=O)/C=C/[C@H](CCC(N)=O)NC(=O)[C@H](Cc1ccccc1)NC(=O)[C@H](CC(=O)O)NC(=O)OCc1ccccc1` [Compound 159] gave a TI greater than 133.

Compound `CCOC(=O)/C=C/[C@H](CCC(N)=O)NC(=O)[C@H](CSC)NC(=O)[C@H](CC(C)C)NC(=O)OCc1ccccc1` [Compound 142] gave a TI greater than 36. The compound `CC(C)C[C@H](NC(=O)OCc1ccccc1)C(=O)N[C@@H](Cc1ccccc1)C(=O)N[C@H](/C=C/C(=O)OC1CCCC1)CCC(N)=O` [Compound 18, Cyclopentyl-3-(CBZ-L-Leu-L-Phe-L-Gln)-E-Propenoate] showed a TI greater than 156. Then `CCOC(=O)/C(C)=C/[C@H](CCC(N)=O)NC(=O)[C@H](Cc1ccccc1)NC(=O)[C@H](CC(C)C)NC(=O)OCc1ccccc1` [Compound 82], with greater than 107. On to `CCOC(=O)/C=C/[C@H](CCC(N)=O)NC(=O)[C@H](Cc1ccccc1)NC(=O)[C@@H](NC(=O)OCc1ccccc1)C(C)O` (some centres unmarked) [Compound 152], for which the TI was greater than 180. Then `COC(=O)/C=C\[C@H](CCC(N)=O)NC(=O)[C@H](Cc1ccccc1)NC(=O)[C@H](CC(C)C)NC(=O)OCc1ccccc1` [Compound 7, Methyl-3-(CBZ-L-Leu-L-Phe-L-Gln)-Z-Propenoate], with greater than 100.

In turn, `CCOC(=O)/C=C/[C@H](CCC(N)=O)NC(=O)[C@H](Cc1ccc(F)cc1)NC(=O)[C@@H](NC(=O)SC1CCCC1)C(C)(C)C` [Compound 176, Ethyl-3-[Cyclopentylthiocarbonyl-L-α-(t-Butyl-Gly)-L-(4-F-Phe)-L-Gln]-E-Propenoate] yielded a TI greater than 714. Then `CCOC(=O)/C(C)=C/[C@H](CCC(N)=O)NC(=O)[C@H](Cc1ccccc1)NC(=O)[C@H](CC(C)C)NC(=O)SC(C)C` [Compound 171], with greater than 140; and `CC(C)C[C@H](NC(=O)OCc1ccccc1)C(=O)N[C@@H](Cc1ccccc1)C(=O)N[C@H](/C=C/C(=O)N1CCc2cc(Br)ccc21)CCC(N)=O` [Compound 94], with greater than 7; and `CC(C)C[C@H](NC(=O)OCc1ccccc1)C(=O)N[C@@H](Cc1ccccc1)C(=O)NC(/C=C/C#N)CCC(N)=O` (mixture of isomers) [Compound 14, 3-(CBZ-L-Leu-L-Phe-DL-Gln)-E-Propenonitrile], with 28. Under `CCOC(=O)/C=C/[C@H](CCC(N)=O)NC(=O)[C@H](Cc1ccccc1)NC(=O)[C@@H](NC(=O)SCC)C(C)(C)C` [Compound 167, Ethyl-3-[Ethylthiocarbonyl-L-α-(t-Butyl-Gly)-L-Phe-L-Gln]-E-Propenoate] stands greater than 1204. Then `CC(C)CC(NC(=O)OCc1ccccc1)C(=O)NC(Cc1ccccc1)C(=O)NC(C=C1CCOC1=O)CCC(N)=O` (centres unmarked) [Compound 90], with greater than 61; and `CCOC(=O)C=CC(CCC(N)=O)NC(=O)C(Cc1ccccc1)NC(=O)C(NC(=O)OCc1ccccc1)c1ccccc1` (centres unmarked) [Compound 71], with 23. Consider `CC(C)C[C@H](NC(=O)OCc1ccccc1)C(=O)N[C@@H](Cc1ccccc1)C(=O)N[C@H](/C=C/C(=O)N1CCc2cc(S(=O)(=O)N(C)C)ccc21)CCC(N)=O` [Compound 88], for which the TI was greater than 18. For the compound `CCOC(=O)/C=C/[C@H](CCC(N)=O)NC(=O)[C@H](Cc1ccc(Cl)cc1)NC(=O)c1cc2c(OC)cccc2[nH]1` [Compound 26, Ethyl-3-[N-(4-Methoxyindole-2-Carbonyl)-L-(4-Cl-Phe)-L-Gln]-E-Propenoate], the TI came out at 22. Then `CC(C)C[C@H](NC(=O)OCc1ccccc1)C(=O)N[C@@H](Cc1ccccc1)C(=O)N[C@H](/C=C/C(=O)N(C)C)CCC(N)=O` [Compound 22, N,N-Dimethyl-3-(CBZ-L-Leu-L-Phe-L-Gln)-E-Propenamide], with greater than 5. `CC(=O)N1CC/C(=C\[C@H](CCC(N)=O)NC(=O)[C@H](Cc2ccccc2)NC(=O)[C@H](CC(C)C)NC(=O)OCc2ccccc2)C1=O` [Compound 164] displayed a TI greater than 141. Then `Cc1cc(CCCCCCCOc2ccc(C3=N[C@@H](C)CO3)cc2)on1` [WIN 52084, reference compound], with greater than 143; and `CCOC(=O)/C=C/[C@H](CCC(N)=O)NC(=O)[C@H](Cc1ccccc1)NC(=O)[C@H](Cc1ccccc1)NC(=O)SCc1ccccc1` [Compound 161], with greater than 588. Then `CCOC(=O)/C=C/[C@H](COC(=O)NC(=O)CCl)NC(=O)[C@H](Cc1ccccc1)NC(=O)[C@H](CC(C)C)NC(=O)OCc1ccccc1` [Compound 122], with 5; and `CCOC(=O)/C=C/[C@H](CCC(N)=O)NC(=O)[C@H](Cc1ccccc1)NC(=O)[C@H](Cc1ccccc1)NC(=O)OCc1ccccc1` [Compound 157], with greater than 571.
